Positions count from the first letter of the chain named.
B1: mAb10922 (antibody, V domains shown)
VH: EVQLVESGGGLVQPGGSLRLSCAASGFTFSIYEMNWVRQAPGKGLEWVSYITSSGTTIYYADSVKGRFTISRDNAKNSLYLQMNSLRAEDTAVYYCASSSSSGYYFDYWGQGTLVTVSS
VL: not shown
B2: mAb10939 (antibody, V domains shown)
VH: EVQLVESGGGLVQPGGSLRLSCAASGLTVSSNYMNWVRQVPGKGLEWVSVIYSGGSKFYVDSVKGRFTISRHNSKNTLYLQMNSLRPEDTAVYYCTRDAQYYGMDVWGQGTTVTVSS
VL: DIQMTQSPSSLSASVGDRVTITCRASQSISTYLHWYQQKPGEAPKLLIYAASSLQSGVPSRFSGSGSGTDFTLTISSLQPEDFATYYCQQSYSTPPEIFGQGTKLEIKR
B3: mAb10930 (antibody, V domains shown)
VH: EVQLVESGGGLVQPGRSLRLSCAASGFTFDDYAMYWVRQAPGKGLEWVSGISWNSGSIGYADSVKGRFTISRDNAKNSLYLQMNSLRAADTALYYCAKDKDWNSRGYYYYGMDVWGQGTTVTVSS
VL: not shown
B4: mAb11008 (antibody, V domains shown)
VH: EVQLVESGGGLVQPGGSLRLSCAASGFTVSSNYMTWVRQAPGKGLEWVSVIYSGGSTFYADSVKGRFTISRHNSENTLYLQMNSLRAEDTAVYYCARDLAAAGTDYWGQGALVTVSS
VL: DIQLTQSPSFLSASVGDRVTITCWASQGISSYLAWYQQKPGKAPKLLIYAASTLQSGVPSRFSGSGSGTEFTLTISSLQPDDFATYYCQHLNSYLYTFGQGTKLEIKR
B5: mAb11006 (antibody, V domains shown)
VH: EVQLVESGGGLVQPGGSLRLSCAASGFIVSRNYMSWVRQAPGKGLEWVSVIYSGGSTFYADSVKGRFTISRHNSKNTLYLQMNSLKAEDTAVYYCARELRGYFDYWGQGTLVTVSS
VL: B4 VL with D81E, H90L, L95P
B6: mAb10985 (antibody, V domains shown)
VH: EVQLVESGGGLVQPGRSLRLSCAASGFTFDDYAMHWVRQAPGKGLEWVSGISWNRGSIGYADSVKGRFTISRDNAKNSLYLQMSSLRAEDTALYYCAKDGERWDSVVVPSARNGMDVWGQGTTVTVSS
VL: QSVLTQPPSVSGAPGQRVTISCTGSSSNIGAGYDVHWYQQLPGTAPKLLIYGNSNRPSGVPDRFSGSKSGTSASLAITGLQAEDEADYYCQSYDSSLSGSYVFGTGTKVTVLG
B7: mAb10935 (antibody, V domains shown)
VH: EVQLVESGGGLVQPGGSLRLSCAASGFTVSSNYMSWVRQAPGKGLEWVSLIYSGGSTYYADSVKGRFTISRHNSKNTLYLQMNSLRSEDTAVYYCARVPLGDYYYGMDVWGQGTTVTVSS
VL: DIQMTQSPSSLSASVGDRVTITCQASQDINKYLNWYQQKPGKAPKLLIYDASNLETGVPSRFSGSGSGTDFTFTISSLQPEDIATYYCQQSDNLPLTFGGGTKVEIKR
B8: mAb10938 (antibody, V domains shown)
VH: EVQLVESGGGLVQPGGSLRLSCAVSGFTVSSNYMSWVRQAPGKGLEWVSLIYSGGSTFYADSVKGRFTISRHNSKNTLYLQMNSLRAEDTAVYYCAREGGYSYDYNYWGQGTLVTVSS
VL: B7 VL with N30R, K31N, S65I, S91Y, L96I, G100Q, K103R, V104L
B9: mAb10966 (antibody, V domains shown)
VH: EVQLVESGGGLVQPGGSLRLSCAASGLTVSSNYMSWVRQAPGKGLEWVSVIYSGGSTFYADSVKGRFTISRDNSKNTLYLQMNSLRPEDTAVYYCAREGRIAATGYGMDVWGQGTTVTVSS
VL: B7 VL with N30S, K31N, E55G, G66R, Q89H, S91Y, L96Q, G100P, E105D
B10: mAb11004 (antibody, V domains shown)
VH: QVQLVESGGGVVQPGRSLRLSCVASGFTFSIYGMDWVRQAPGKGLEWVAVISYDGSNKYYADSVKGRFTISRDNSKNTLYLQMNSLRPEDTAVYYCAKDREAAADAFDIWGQGTMVTVSS
VL: DIQMTQSPSSVSASVGDRVTITCRASQGISSWLAWYQQKPGKAPKLLIYAASSLHSGVPSRFSGSGSGTDFTLTISSLQPEDFATYYCQQANSFRLTFGGGTKVEIKR
B11: mAb10998 (antibody, V domains shown)
VH: EVQLVESGGGLVHPGGSLRLSCAASGLTVSSNYMSWVRQAPGKGLEWVSVIYSGGSTYYADSVKGRFTISRHNSKNTLFLQMNSLRAEDTAVYYCARDRPITGTTLDVWGQGTTVTVSS
VL: B2 VL with S12F, T31S, H34N, E42K, T85F, S91T, E97I, I98T, K104R
B12: mAb11006 (antibody, V domains shown)
VH: B5 VH
VL: B4 VL with D81E, H90L, L95P
B13: mAb11008 (antibody, V domains shown)
VH: B4 VH
VL: B4 VL
B14: mAb10971 (antibody, V domains shown)
VH: EVQLVESGGGLIQPGGSLRLSCAASGVTVSSNYMSWVRQAPGKGLEWVSVIYSGGSTFYSDSVKGRFSISRDNSKNTLYLQMNSLRAEDTAVYYCARDLYYYGMDVWGQGTTVTVSS
VL: DIQLTQSPSFLSASVGDRVTITCRASQGISTYLAWYQQKPGKAPKLLIYAASTLQSGVPSRFSGSGSGTEFTLTISSLQPEDFATYYCQQLDSYPGLTFGGGTKVEIKR
B15: mAb10966 (antibody, V domains shown)
VH: B9 VH
VL: B7 VL with N30S, K31N, E55G, G66R, Q89H, S91Y, L96Q, G100P, E105D
B16: mAb11004 (antibody, V domains shown)
VH: B10 VH
VL: B10 VL
B17: mAb10954 (antibody, V domains shown)
VH: EVQLVESGGGLVQPGGSLRLSCAASGITVSSNYMSWVRQAPGKGLEWVSLIYSGGSTYYADSVKGRFTISRDNSKNTLYLQMNSLRVEDTAVYYCARDHGMAAAGYNYWGQGTLVTVSS
VL: B7 VL with S76N, I83F, Y87F, S91Y, L96P, T97A, G100Q
B18: mAb10984 (antibody, V domains shown)
VH: EVQLVESGGGLVQPGGSLRLSCAASGLTVNRNYMSWVRQAPGKGLEWVSLIYSGGSTYYADSVKGRFTISRDNSKNTLYLQMNSLRLEDTAVYYCARGELGIPYGMDVWGQGTTVTVSS
VL: QSVLTQPPSVSAAPGQKVTISCSGSSSNIGNNYVSWYQQLPGTAPKLLIYDNNKRPSGIPDRFSGSKSGTSATLGITGLQTGDEADYYCGTWDSSLSAGVFGGGTKLTVLG
B19: mAb10985 (antibody, V domains shown)
VH: B6 VH
VL: B6 VL
B20: mAb10934 (antibody, V domains shown)
VH: not shown
VL: B7 VL with N30W, K31N, L33I, E55K, S91H, N93D, L96P, G100Q
B21: mAb10937 (antibody, V domains shown)
VH: QITLKESGPTLVKPTQTLTLTCTFSGFSLSTNVVGVGWIRQPPGKALEWLALIYWNDDKRYSPSLKSRLTITKDTSKNQVVLTMTNMDPVDTATYYCAHGPTGDYFDYWGQGTLVTVSS
VL: not shown

What follows are binders tested against SARS-COV-2 RBD extracellular domain expressed with a C-terminal myc-myc-hexahistidine tag (SARS-COV-2 RBD-MMH) (SARS-CoV-2) (assay: SPR).

Q: Which “90 nM Ag Bound (RU)” value does the source give for B1 here?
A: 120 RU

Q: And the Kd?
A: 2.41 nM

Q: And the “t1/2” value?
A: 7.8 min

Q: What does the source list for B2?
A: 90 nM Ag Bound (RU): 82.3 RU; Kd: 17.4 nM; t1/2: 4.1 min

Q: For B3, which “90 nM Ag Bound (RU)” value is on record?
A: 59.6 RU

Q: What about the Kd of the same binder?
A: 27 nM

Q: And the koff?
A: 0.00334 s⁻¹

Q: And the kon?
A: 124000 M⁻¹ s⁻¹

Q: And the “t1/2” value?
A: 3.5 min

Q: For B4, which “90 nM Ag Bound (RU)” value is on record?
A: 40.8 RU

Q: And the Kd?
A: 35.2 nM

Q: And the “t1/2” value?
A: 3.5 min

Q: With B5 as the binder, how does the “90 nM Ag Bound (RU)” value read?
A: 66.9 RU

Q: What about the Kd of the same binder?
A: 4.55 nM

Q: And the “t1/2” value?
A: 26.3 min

Q: What does the source list for B6?
A: 90 nM Ag Bound (RU): 113 RU; Kd: 1.08 nM; t1/2: 7.5 min

Q: How did the “90 nM Ag Bound (RU)” value turn out when B7 was run?
A: 108 RU

Q: And the Kd?
A: 10.7 nM

Q: And the “t1/2” value?
A: 2.8 min

Q: With B8 as the binder, how does the “90 nM Ag Bound (RU)” value read?
A: 61.5 RU

Q: What about the Kd of the same binder?
A: 2.41 nM

Q: What about the “t1/2” value of the same binder?
A: 66 min

Q: B9 was tested. Which “90 nM Ag Bound (RU)” value did it give?
A: 97.4 RU

Q: And the Kd?
A: 1.54 nM

Q: And the “t1/2” value?
A: 31.6 min

Q: With B10 as the binder, how does the “90 nM Ag Bound (RU)” value read?
A: 76.4 RU

Q: What about the Kd of the same binder?
A: 8.54 nM

Q: And the “t1/2” value?
A: 3.6 min

Each binder was assayed against SARS-COV-2 RBD-MMH (SARS-CoV-2 RBD extracellular domain with a C-terminal myc-myc-hexahistidine tag) (SARS-CoV-2) (assay: SPR Biacore 25C, mAb captured).

Q: Which “50 nM Ag Bound (RU)” value does the source give for B11 here?
A: 69 RU

Q: And the Kd?
A: 117 nM

Q: What about the t1/2 of the same binder?
A: 0.5 min

Q: Which results are given for B12?
A: 50 nM Ag Bound (RU): 49 RU; Kd: 4.1 nM; t1/2: 31.5 min

Q: With B13 as the binder, how does the “50 nM Ag Bound (RU)” value read?
A: 56 RU

Q: And the Kd?
A: 59.4 nM

Q: And the t1/2?
A: 2.9 min

Q: B14 was tested. Which “50 nM Ag Bound (RU)” value did it give?
A: 358 RU

Q: And the Kd?
A: 2.67 nM

Q: And the t1/2?
A: 25.8 min

Q: Which “50 nM Ag Bound (RU)” value does the source give for B15 here?
A: 343 RU

Q: And the Kd?
A: 2.81 nM

Q: And the t1/2?
A: 26.3 min

Q: Which results are given for B16?
A: 50 nM Ag Bound (RU): 161 RU; Kd: 16.6 nM

Q: Which Kd does the source give for B17 here?
A: 1.73 nM

Q: What about the t1/2 of the same binder?
A: 28.5 min

The binders below were run against MERS.mFc (mAb2663-L1) (MERS-CoV) (assay: Luminex, supernatant).

Q: How did the MFI turn out when B18 was run?
A: 237 MFI

Q: How did the MFI turn out when B19 was run?
A: 168 MFI

Q: B20 was tested. Which MFI did it give?
A: 77 MFI

Each binder was assayed against MERS.hFc (mAb2664-L1) (MERS-CoV) (assay: Luminex, supernatant).

Q: For B18, which MFI is on record?
A: 341 MFI

Q: How did the MFI turn out when B19 was run?
A: 195 MFI

Q: With B21 as the binder, how does the MFI read?
A: 23 MFI

The binders below were run against Bt-MERS.hFc (mAb2664-L2) (MERS-CoV) (assay: Luminex, supernatant).

Q: For B18, which MFI is on record?
A: 172 MFI

Q: For B19, which MFI is on record?
A: 159 MFI

Q: For B21, which MFI is on record?
A: 29 MFI
